Anti-infective test results gathered from many reports (values: NIAID ChemDB through PubChem).

All rows: toxicity to cultured cells; cells: MCF-7; endpoint: CC50

CCn is the concentration with n% toxicity to the cells. Lines come from different laboratories, so protocols vary.

structure | read by | value
COc1cc2c3c(cc(O)c2cc1C)C(C)(C)C(=O)OC3=O | absorbance | >10 µM
C[C@@H]1CC[C@H]2C3=C(C[C@H](O)[C@@]2(O)C1)C(=O)c1c(O)cccc1C3=O | resazurin | 3.4 µM
CC(C)=C[C@H](O)C[C@@H](C)[C@H]1CC[C@@]2(C)[C@@H]3[C@@H](O)C=C4[C@@H](CC[C@H](O)C4(C)C)[C@]3(C)CC[C@]12C | MTT | 27.3 µM
CCOC(=O)/C(=C\c1cc(-c2ccccc2)cnc1Cl)C(=O)c1ccccc1 | MTT | 106 µM
COc1ccc2[nH]c3c(C)c(C)c(OC)c(O)c3c2c1 | resazurin | 9.8 µg/mL
C/C(=C\C[C@H](O)[C@@H](C)[C@H]1CC[C@@]2(C)C3=C(CC[C@]12C)[C@@]1(C)CCC(=O)C(C)(C)C1CC3)C(=O)O | resazurin | >50 µg/mL
O=c1sc2nc3c(c(=S)n2/c1=C/c1ccccc1)C1=C(CCC/C1=C\c1ccncc1)C(c1ccncc1)S3 | MTT | 38.7 µM
O=C(O)c1cn(CCO)c2ccc(Cc3ccccc3)cc2c1=O | MTT | >20 µM
C[C@H](O)Cc1cc2c(O[C@H]3O[C@H](CO)[C@@H](O)[C@H]3O)ccc(O)c2c(=O)o1 | MTT | >40 µg/mL
Cc1cnc(Cl)c(/C=C/C(=O)c2ccccc2)c1 | MTT | 14 µM
C/C(=N\NC(=O)c1ccc(Cl)cc1)c1cccc(/C(C)=N/NC(=O)c2ccc(Cl)cc2)n1 | MTT | >100 µM
O=C1/C(=C/c2ccc(-c3cc(C(F)(F)F)ccc3Cl)o2)SC(=S)N1Cc1ccc(Cl)cc1 | MTT | 1.13 µM
COc1cc2c(c(O)c1OC)-c1c(cc(OC(C)=O)c(OC)c1O)C[C@@H](C)[C@@H](C)C2 | MTT | >10 µg/mL
O=C(O)c1ccc(-c2ccc(/C=C3\SC(=S)N(CCc4ccc(Cl)c(Cl)c4)C3=O)o2)cc1O | MTT | >100 µM
C/C(=C/CC[C@@H](C)C(=O)C1C[C@@]2(C)[C@@H]3CC[C@H]4C(C)(C)C(=O)CC[C@]4(C)C3=C[C@@]2(O)[C@]1(C)O)C(=O)O | MTT | >40 µg/mL
CC(C)c1nc(C(=O)NCc2ccc(F)cc2)c(O)c(=O)n1C | MTT | >20 µM
CCO[C@H]1c2cc(O)c(OC)c(OC)c2-c2c(cc(O)c(OC)c2OC)C[C@H](C)[C@@H]1C | MTT | >10 µg/mL
N#CC1=C(N)SC(c2ccncc2)C2=C1/C(=C/c1ccncc1)CCC2 | MTT | >50 µM
CCCc1cnc(Cl)c(/C=C/C(=O)OCC)c1 | MTT | 9 µM
N#Cc1c(N)c2c3c([nH]c2[nH]c1=O)SC(c1ccncc1)C1=C3/C(=C/c2ccncc2)CCC1 | MTT | 15.6 µM
CC(=O)O[C@@H](C/C=C(\C)C(=O)O)[C@@H](C)[C@H]1CC[C@@]2(C)C3=C(CC[C@]12C)[C@@]1(C)CC[C@@H](O)C(C)(C)C1CC3 | resazurin | 40.15 µg/mL
COc1ccc2[nH]c3c(C)c(C)c(OC)c(OC)c3c2c1 | resazurin | 21.3 µg/mL
O=C1Sc2nc3c(c(=S)n2C/C1=C/c1ccc(Cl)cc1)C1=C(CCC/C1=C\c1ccncc1)C(c1ccncc1)S3 | MTT | 18.6 µM
O=C(c1c[nH]c2ccccc12)[C@H](O)CO | MTT | >40 µg/mL
COc1c(C)c(C)c2[nH]c3ccccc3c2c1OC | resazurin | 26.2 µg/mL
CC(=O)O[C@@H](C/C=C(\C)C(=O)O)[C@@H](C)[C@H]1CC[C@@]2(C)C3=C(CC[C@]12C)[C@@]1(C)CCC(=O)C(C)(C)C1CC3 | resazurin | >50 µg/mL
O=C1CCn2c(nc3c(c2=S)C2=C(CCC/C2=C\c2ccncc2)C(c2ccncc2)S3)S1 | MTT | 41.1 µM
COc1ccc2[nH]c3c(Cc4ccc5[nH]c6c(C)c(C)c(OC)c(O)c6c5c4)c(C)c(OC)c(O)c3c2c1 | resazurin | 30.3 µg/mL
Cc1ccc(/C=c2\c(=O)sc3nc4c(c(=S)n23)C2=C(CCC/C2=C\c2ccncc2)C(c2ccncc2)S4)cc1 | MTT | 36.5 µM
O=C(/C=C/c1cc(-c2ccccc2)cnc1Cl)c1ccccc1 | MTT | 82 µM
CN1C=CN(c2cccc(N3C=CN(C)C3)n2)C1.[Cl][Au].[Cl][Au] | sulforhodamine / absorbance | >30 µM